Measured values from several laboratories, pooled; numbers as filed in NIAID ChemDB.

All rows: whole-cell or culture tests; species: Candida albicans

ECn is the concentration giving n% inhibition of infection, replication or growth.

smiles,method,endpoint,strain or isolate,setting,result
N/C(=N\NC(CC(=O)c1ccc(Cl)c(Cl)c1)c1cccnc1)c1ccccn1,,MIC,C873,,80 µg/mL
CC(=O)OC1CC(C)CCC1C(C)C,,MIC,,,15.85 µM
COc1ccc(C(C(Cc2ccc(Cl)cc2Cl)c2ccc(Cl)cc2)n2ccnc2)cc1,,MIC90,28 strains,,64 µg/mL
CCCCCOc1ccc(-c2ccc(-c3ccc(C(=O)N[C@H]4CCCNC(=O)C5C[C@H](N)CN5C(=O)C(CN)NC(=O)C(CCc5ccc(O)cc5)NC(=O)C5C[C@@H](O)CN5C(=O)C(C(C)O)NC4=O)cc3)cc2)cc1,,MIC,ATCC 10231,,0.78 µg/mL
CCC(c1ccc(OC)cc1)C(c1ccc(OC)cc1)n1ccnc1,,EC50,28 strains,,<256 µg/mL
Cc1ccc2c(c1)c1nnc(N3CCN(C)CC3)nc1n2C,,MIC,1208E,,4 µg/mL
COc1ccc(C(Cc2cccc(F)c2)n2ccnc2)cc1,,MIC50,34 strains,,128 µg/mL
CCC(C)CC(C)CCCCCCCCC(=O)N[C@H]1C[C@@H](O)[C@H](NCCN)NC(=O)[C@@H]2[C@@H](O)CCN2C(=O)[C@H]([C@H](O)CCN)NC(=O)[C@H]([C@H](O)[C@@H](O)c2ccc(O)cc2)NC(=O)[C@@H]2C[C@@H](O)CN2C(=O)[C@H]([C@@H](C)O)NC1=O,broth dilution,EC90,15 isolates,pH 6,0.125 µg/mL
COc1ccc(C(Cc2cccc(Cl)c2)n2ccnc2)cc1,,Geometric mean MIC,34 strains,,108 µg/mL
CC1CCC(C(C)C)C(OC(=O)C(C)Cl)C1,,MIC,,,12.59 µM
Cc1ccc(C(=O)CC(N/N=C(\N)c2ccccn2)c2cccnc2)cc1,,MIC,C873,,>160 µg/mL
c1ccc(C(Cn2ccnc2)OCc2cccc3ccccc23)cc1,,MIC,5M,,>128 µg/mL
N/C(=N\NC(CC(=O)c1ccc(Cl)cc1)c1ccncc1)c1ccccn1,,MIC,C873,,80 µg/mL
CCCCCOc1ccc(-c2ccc(-c3ccc(C(=O)N[C@H]4CCCNC(=O)C5[C@@H](O)[C@@H](O)N5C(=O)C(C(C)O)NC(=O)C(CCc5ccc(O)cc5)NC(=O)C5C[C@@H](O)CN5C(=O)C(C(C)O)NC4=O)cc3)cc2)cc1,,MIC,ATCC CCH442,,0.1 µg/mL
CC1C=C(c2ccc(Cl)c(Cl)c2)C(=O)O1,,MIC,ATCC 44859,,>125 µM
CCCCCCCC/C=C\CC/C=C/[C@H]1C[C@H]([C@](O)(CC(=O)O)C(=O)O)C(=O)O1,,MIC,,,>312 µM
COc1ccc(C(=O)C(Cc2ccc(Cl)cc2Cl)c2ccc(Cl)cc2)cc1,,EC50,28 strains,,>256 µg/mL
CCCCCCCC(Cn1ccnc1)c1ccc(Cl)cc1Cl,,MIC,,,10 µg/mL
CCC(C)CC(C)CCCCCCCCC(=O)N[C@H]1C[C@@H](O)[C@H](NCCN)NC(=O)[C@@H]2[C@@H](O)CCN2C(=O)[C@H]([C@H](O)CCN)NC(=O)[C@H]([C@H](O)[C@@H](O)c2ccc(O)cc2)NC(=O)[C@@H]2C[C@@H](O)CN2C(=O)[C@H]([C@@H](C)O)NC1=O,,MIC90,10 strains (fluconazole- itraconazole-susceptible),,1 µg/mL
C[C@@H](SC1COC(/C=C/C=C/c2ccc(C#N)cc2F)OC1)[C@](O)(Cn1cncn1)c1ccc(F)cc1F,,MIC,CAL-0066,,0.03 µg/mL
CCC(c1ccc(OC)cc1)C(c1ccc(OC)cc1)n1cncn1,,MIC90,28 strains,,256 µg/mL
c1ccc(-c2ccc(COC(Cn3ccnc3)c3ccccc3)cc2)cc1,,MIC,CA6,,>128 µg/mL
c1ccc(-c2c[nH]cc2C(c2ccc3ccccc3c2)n2ccnc2)cc1,,MIC,,,3.8 µg/mL
Clc1ccc(C(Cn2ccnc2)OCc2ccc(-c3ccccc3)cc2)c(Cl)c1,,MIC,CA7,,64 µg/mL
CS(C)=O,,MIC,F2 sensitive,,6.25 µg/mL
CCCCCOc1ccc(-c2ccc(-c3ccc(C(=O)N[C@H]4CCCNC(=O)C5C[C@H](NC(=O)C[N+](C)(C)C)CN5C(=O)C(C(C)O)NC(=O)C(CCc5ccc(O)cc5)NC(=O)C5C[C@@H](O)CN5C(=O)C(C(C)O)NC4=O)cc3)cc2)cc1,,MIC,ATCC 10231,,1.56 µg/mL
CCC(C)n1ncn(-c2ccc(N3CCN(c4ccc(OC[C@H]5CO[C@](Cn6cncn6)(c6ccc(Cl)cc6Cl)O5)cc4)CC3)cc2)c1=O,broth dilution,EC90,10 isolates,pH 4,>16 µg/mL
Cn1cc(-c2ccc(Cl)cc2)c(C(c2ccc(Cl)cc2Cl)n2ccnc2)c1,,MIC,,,0.28 µg/mL
COc1ccc(C(Cc2ccccc2F)n2ccnc2)cc1,,Geometric mean MIC,34 strains,,122 µg/mL
CCCCC/C=C/CCC(=O)[C@H]1O[C@H]1C(=O)N(CC)CC,,MIC,SC5314,,12.5 µg/mL
Nc1[nH]c(=O)ncc1F,broth dilution,MIC,10 isolates,pH 4,0.5 µg/mL
Cc1ccc2c(c1)c1nnc(N3CC[N+](C)([O-])CC3)nc1n2C,,MIC,1208E,,>125 µg/mL
CC[C@@H]([C@H](C)O)n1ncn(-c2ccc(N3CCN(c4ccc(OC[C@@H]5CO[C@@](Cn6cncn6)(c6ccc(F)cc6F)C5)cc4)CC3)cc2)c1=O,,MIC,Isolate CA-4,,>4 µg/mL
COc1ccc(C(Cc2ccccc2Cl)n2ccnc2)cc1,,MIC90,34 strains,,256 µg/mL
COc1ccc(C(Cc2ccccc2F)n2ccnc2)cc1,,MIC,,,49 µg/mL
N/C(=N\NC(CC(=O)c1ccc(-c2ccccc2)cc1)c1ccncc1)c1ccccn1,,MIC,C873,,>160 µg/mL
CC(/C=C/C=C(\C)C(O)C(C)C(=O)O[C@H]1C[C@@H](C)C=C2C=C[C@@](C)(O)[C@](C)(C(=O)CCO)[C@H]21)=C\C=C\C(=O)O,,MIC,579A,,50 µg/mL
N/C(=N\NC(CC(=O)c1ccc(Cl)cc1)c1cccnc1)c1ccccn1,,MIC,C873,,80 µg/mL
Clc1ccc(-n2ccc(C(c3ccccc3)n3ccnc3)c2)cc1,,MIC,,,0.7 µg/mL
CC[C@@H](c1ccc(Cl)cc1)[C@@H](c1ccc(OC)cc1)n1cnnc1,,MIC90,28 strains,,256 µg/mL
COc1ccc(C(Cc2ccc(F)cc2)n2ccnc2)cc1,,MIC90,34 strains,,128 µg/mL
CCCCCCCCOc1ccc(N2CCN(c3ccc(C(=O)N[C@H]4CCCNC(=O)C5C[C@H](N)CN5C(=O)C(C(C)O)NC(=O)C(c5ccc(CO)cc5)NC(=O)C5CCCN5C(=O)C(C(C)O)NC4=O)cc3)CC2)cc1,,MIC,ATCC 10231,,50 µg/mL
Cc1ccc(C(Cn2ccnc2)OCc2cccc3ccccc23)cc1,,MIC,CA6,,>128 µg/mL
Fc1ccc(CCCCn2c3c(c4cc(F)ccc42)CNCC3)cc1,,MIC,OY3-55,,0.5 µg/mL
CCCCCCC(Cn1ccnc1)c1ccc(Cl)cc1Cl,,MIC,,,10 µg/mL
COC(=O)[C@H](C)NC(=O)[C@H](Cc1c[nH]c2ccccc12)NC(=O)c1ccccc1-c1cnc(C)[nH]1,,MIC,,,6.25 µg/mL
Cc1ccc(C(c2ccn(-c3ccc(Cl)cc3)c2)n2ccnc2)cc1,,MIC,,,1.1 µg/mL
COc1ccc(C(Cc2c(Cl)cccc2Cl)n2ccnc2)cc1,,Geometric mean MIC,34 strains,,22.38 µg/mL
Clc1ccc(C(Cn2ccnc2)OCc2cccc3ccccc23)cc1,,MIC,CA2,,>128 µg/mL
COC(=O)[C@@H](NC(=O)c1ccccc1-c1cnc(C)[nH]1)[C@@H](C)O,,MIC,,,6.25 µg/mL
COc1ccc(C(Cc2ccccc2N)n2ccnc2)cc1,,MIC50,34 strains,,32 µg/mL
COC(=O)[C@@H]1CCCN1C(=O)[C@H](Cc1cnc[nH]1)NC(=O)[C@H](C)NC(=O)[C@@H](NC(=O)c1cc(I)ccc1-c1cnc(C)[nH]1)[C@@H](C)O,,MIC,,,6.25 µg/mL
Cc1cccc(C(=O)CC(N/N=C(\N)c2ccccn2)c2cccnc2)c1,,MIC,C873,,>160 µg/mL
Cc1ccc(C(Cn2ccnc2)OCc2ccc(C(C)(C)C)cc2)cc1,,MIC,PR1,,>128 µg/mL
CCCCCCCCC(=O)[C@H]1O[C@H]1C(=O)NCc1ccccc1,,MIC,F2 sensitive,,6.25 µg/mL
CC1C=C(c2ccc(F)c(F)c2)C(=O)O1,,MIC,ATCC 44859,,>125 µM
CCCCCCCCC(Cn1ccnc1)c1c(Cl)cccc1Cl,,MIC,,,>100 µg/mL
CCCCCOc1ccc(-c2ccc(-c3ccc(C(=O)N[C@H]4CCCNC(=O)C5C[C@H](F)N5C(=O)C(C(C)O)NC(=O)C(CCc5ccc(O)cc5)NC(=O)C5C[C@@H](O)CN5C(=O)C(C(C)O)NC4=O)cc3)cc2)cc1,,MIC,ATCC 10231,,0.78 µg/mL
COC(=O)[C@H]1[C@@H]2C[C@@H](O[C@@H]3O[C@H](C)[C@@H](O)[C@H](N)[C@@H]3O)/C=C/C=C/C=C/C=C/C=C/C=C/C=C/[C@H](C)[C@@H](O)[C@H](C)[C@H](C)OC(=O)C[C@H](O)C[C@H](O)[C@@H](O)CC[C@H](O)C[C@H](O)C[C@](O)(C[C@@H]1O)O2,broth dilution,EC90,10 isolates,pH 5,4 µg/mL
N/C(=N\NC(CC(=O)c1ccc(-c2ccccc2)cc1)c1cccnc1)c1ccccn1,,MIC,C873,,>160 µg/mL
CC(C)N=C(N)c1ccc2nc(-c3ccc4c(c3)Cc3cc(-c5nc6ccc(C(N)=NC(C)C)cc6[nH]5)ccc3-4)[nH]c2c1,,MFC,Isolate CA1548,,1.56 µg/mL
CCCn1cc(-c2ccc(Cl)cc2)c(C(c2ccc(Cl)cc2Cl)n2ccnc2)c1,,MIC,,,1.7 µg/mL
CC1CCC(C(C)C)C(OC(=O)/C=C/c2ccccc2[N+](=O)[O-])C1,,MIC,,,4.68 µM
Clc1ccc(C(Cn2ccnc2)OC/C=C/c2ccccc2)cc1,,MIC,5M,,>128 µg/mL
CCn1cc(-c2ccc(Cl)cc2Cl)c(C(c2ccccc2)n2ccnc2)c1,,MIC,,,0.33 µg/mL
CCC(C)n1ncn(-c2ccc(N3CCN(c4ccc(OC[C@H]5CO[C@](Cn6cncn6)(c6ccc(Cl)cc6Cl)O5)cc4)CC3)cc2)c1=O,,MIC,Isolate CA-5,,>8 µg/mL
CC1CCC(C(C)C)C(OC(=O)CCl)C1,,MIC,,,13.49 µM
CCCCC(Cn1ccnc1)c1ccccc1Br,,MIC,,,100 µg/mL
COc1ccc(C(Cc2ccccc2[N+](=O)[O-])n2ccnc2)cc1,,Geometric mean MIC,34 strains,,312 µg/mL
CC(C)(C)c1ccc(COC(Cn2ccnc2)c2ccc(Cl)cc2Cl)cc1,,MIC,CA12,,128 µg/mL
CC1C=C(c2ccc(Br)cc2)C(=O)O1,,MIC,ATCC 44859,,31.25 µM
COc1ccc(CC(c2ccc(OC)cc2)n2cncn2)cc1,,MIC50,28 strains,,128 µg/mL
C[C@H]1[C@H](O)[C@@H](C)/C=C/C=C/C=C/C=C/C=C/C=C/C=C/[C@H](O[C@@H]2O[C@H](C)[C@@H](O)[C@H](N)[C@@H]2O)C[C@@H]2O[C@](O)(C[C@@H](O)C[C@@H](O)CC[C@H](O)[C@@H](O)C[C@@H](O)CC(=O)O[C@H]1C)C[C@H](O)[C@H]2C(=O)O,,MIC,ATCC64552,,1 µg/mL
O=C/C=C/c1ccc(O)cc1,,EC50,KCTC 1940,,60 µM
COC(=O)CNC(=O)[C@@H](NC(=O)CNC(=O)c1cc(I)ccc1-c1cnc(C)[nH]1)C(C)C,,MIC,,,6.25 µg/mL
COc1cccc(C2=CC(C)OC2=O)c1,,MIC,ATCC 44859,,>125 µM

The last 5 rows once more:

| smiles | method | endpoint | strain or isolate | setting | result |
|---|---|---|---|---|---|
| COc1ccc(CC(c2ccc(OC)cc2)n2cncn2)cc1 |  | MIC50 | 28 strains |  | 128 µg/mL |
| C[C@H]1[C@H](O)[C@@H](C)/C=C/C=C/C=C/C=C/C=C/C=C/C=C/[C@H](O[C@@H]2O[C@H](C)[C@@H](O)[C@H](N)[C@@H]2O)C[C@@H]2O[C@](O)(C[C@@H](O)C[C@@H](O)CC[C@H](O)[C@@H](O)C[C@@H](O)CC(=O)O[C@H]1C)C[C@H](O)[C@H]2C(=O)O |  | MIC | ATCC64552 |  | 1 µg/mL |
| O=C/C=C/c1ccc(O)cc1 |  | EC50 | KCTC 1940 |  | 60 µM |
| COC(=O)CNC(=O)[C@@H](NC(=O)CNC(=O)c1cc(I)ccc1-c1cnc(C)[nH]1)C(C)C |  | MIC |  |  | 6.25 µg/mL |
| COc1cccc(C2=CC(C)OC2=O)c1 |  | MIC | ATCC 44859 |  | >125 µM |

An empty or dashed field is not shown. A number after MIC or MFC names an inhibition level or a share of isolates. Neighbouring rows are from separate reports.